Publication PMC11125953 (Viruses, 2024)

System: E. Derm cells infected with EHV-4 405/76
Assay: Transcriptomic analysis
Format: cell-based, Equus caballus
Conditions: 25 µM DTB, MOI 2, 18 hpi

Nc1ncn([C@H]2C[C@H](O)[C@@H](CO)O2)c(=O)n1 [Decitabine]
number of down-regulated DEGs, EHV-4+DTB vs EHV-4: 25
number of up-regulated DEGs, EHV-4+DTB vs EHV-4: 94
number of DEGs, EHV-4+DTB vs EHV-4 (|Log2(FC)| > 1, adjusted p < 0.05): 119
